Source: ChEMBL document CHEMBL3988442, “University of Dundee, Small-Polar-MMV Screening Library” (2021).

A: 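Whole-cell growth test on Mycobacterium tuberculosis, read after 4 days in a medium based on cholesterol and the lipid DPPC; the read-out is not stated. Tested at 500 µM. The record gives no direction; compounds that gave an IC50 in retests scored well above the rest, so higher reads as more growth inhibition. Size under these conditions: about 18,000 compounds, about 900 of them at 50% or above in at least one test.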
B: 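Whole-cell growth test on Mycobacterium tuberculosis, read after 3 days in glucose-containing 7H9 medium; the read-out is not stated. Concentration: 500 µM. Higher reads as more growth inhibition (inferred: compounds with an IC50 in retests scored well above the rest). Of about 18,000 compounds tested this way, about 1,400 (7.9%) reached 50% or more in at least one test.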

Results are given as percent effect.
The record does not define 0% and 100%; most values in the screen are far below 50% and negative numbers occur (in some assays of this library far below -100).
Many other results are left out here, so strong results are more common than in the screen.
A dash means the value is not listed here; it may have been measured.

compound	A	B
N#Cc1cccc(C(=O)NCC(O)C2CCOCC2)c1 (centres undefined)	-	-0.8343%
CN(CC1CCOCC1)C(=O)CSc1nnc(N)s1	-0.8327%	9.764%
COc1c(F)cc(C(=O)NC2CCNC2)cc1F (centres undefined)	-3.914%	-
Cc1ncsc1CCCNC(=O)CNC(=O)N(C)C	-	3.189%
O=C(c1cnsn1)N1CCSCC1c1ccccc1 (centres undefined)	-16.51%	10.12%
CC1CCN(C(CN)C(C)C)CC1 (centres undefined)	15.64%	-
CCO[C@H]1COC[C@@H]1NC(=O)c1cnc(O)cn1	-	-0.2969%
O=C(CSCCN1C(=O)CCC1=O)Nc1ccccc1	-3.358%	-
CCc1cc(N2CCN(Cc3ncc[nH]3)CC2)ncn1	-	21.46%
O=C(COC(=O)C1=COCCO1)Nc1ccc(I)cc1	-	5.887%
Cc1cccc(C(=O)Nc2ncc(C)s2)n1	-	-14.58%
O=C(CCN1CCCC1c1ccsc1)N1CCOCC1 (centres undefined)	-	30.75%
C1CC(NC2CCOCC2)CCN1	-	-6.475%
Cn1nc2n(c1=O)CCN(Cc1ccc(Br)o1)CC2	-16.73%	-
NCc1cccc(S(=O)(=O)C(F)(F)F)c1	-	13.62%
CC(CC(C)(C)O)NCCSc1cnn[nH]1 (centres undefined)	5.825%	-
CN(c1ccc(CN)cc1)S(C)(=O)=O	-	2.336%
NC(CCO)c1ccc(F)cc1 (centres undefined)	-	8.893%
Cc1noc(C)c1CC(=O)NC1CC1	-	-2.4%
NC(=O)[C@@H]1Cc2ccccc2N1C(=O)C1CCOCC1	3.096%	-
CCOc1cc(C(=O)OCCCn2cccn2)ccn1	3.146%	4.539%
CN1CCC(CNC(=O)COc2cccnc2)C1 (centres undefined)	-	3.69%
NCC(NC(=O)c1ccccc1C(F)(F)F)C1CC1 (centres undefined)	-16.07%	-
CCOc1c(CNCCO)cc(Cl)cc1OC	8.091%	-
CCC(C)N(C)CCNC(=O)NC1CC1 (centres undefined)	-17.13%	-
CCC(CC)(CN)C(=O)N1CCOC(C)(C)C1	-	-14.32%
Cc1ccc(C(N)=O)cc1NCC(C)C	-	51.9%
CS(=O)(=O)NCCNS(=O)(=O)c1ccc2c(c1)CCC2	10.18%	-
Cc1cccc(OCCNS(C)(=O)=O)c1	-	32.67%
CS(=O)(=O)N1CCN(c2ccccc2F)CC1	-	8.478%
CC(C)(C)SCC(=O)NCC(C)(C)N1CC[S+]([O-])CC1	-	3.251%
c1cnc2cc(-c3nc(C4CCOC4)no3)nn2c1 (centres undefined)	5.698%	-
CCS(=O)(=O)N(C)C(=O)CCc1c[nH]c2ccccc12	87.36%	94.26%
Cc1cccc(NCC2(CS(C)(=O)=O)CC2)n1	-	7.197%
Cc1nn(C)c(C)c1CCC(=O)N[C@@H]1CCNC[C@H]1O	11.49%	-
O=c1ccc(Br)cn1Cc1noc(C2CC2)n1	69.9%	62.68%
Cc1noc(C)c1CN1CCC(C(N)=O)CC1	-2.425%	-
CCCc1nc(C(=O)NCCS(=O)(=O)N(C)C)cs1	10.46%	28.17%
Cc1cc(C2CCCN2CCS(C)(=O)=O)on1 (centres undefined)	-	10.78%
NS(=O)(=O)NCCCc1ccc(Br)cc1F	90.55%	82.56%
N#Cc1ccc(OC2CCC(N)CC2)nc1 (centres undefined)	-	-17.7%
O=C(CCc1cc(Cl)no1)N1CC[C@H]2CNC[C@H]21	-	-4.284%
O=C(COCC(F)(F)F)NCCn1ccnc1	-2.862%	-
COC(=O)CCc1nnc(N)s1	-6.943%	-
Cc1ccc(C(C)NC(=O)c2cnsn2)o1 (centres undefined)	-	0.1652%
NCc1ccnc(OCC(F)F)c1	15.76%	29.4%
CC(C)(C)NCC(=O)Nc1ccc(Cl)cn1	-	27.28%
Cc1ccccc1-n1nnnc1SC(C)C(=O)N(C)C (centres undefined)	22.39%	40.68%
Cc1nn(C)c(C)c1C(C)NC(=O)CN1CCCC1 (centres undefined)	-0.4978%	-
CCOCCC(=O)N[C@@H]1COCC[C@@H]1OCC(N)=O	-	-3.637%
CC(NC(=O)C1(N)Cc2ccccc2C1)C1CC1 (centres undefined)	-16.98%	-
CCOC(=O)c1cnn(-c2ccc(OCC)cc2)c1N	51.87%	57.47%
NCc1nc(-c2ccc(F)cc2)c[nH]1	-	54.16%
NC(=O)c1ccon1	-	10.28%
CCS(=O)(=O)NCc1ccc(OC)cc1	30.83%	-
NS(=O)(=O)N1CCN(Cc2cccc3nonc23)CC1	-	4.054%
COc1ccc(OCCN2CCC(C(N)=O)CC2)cc1	-2.766%	0.1591%
NC(=O)Cc1ccccc1NC(=O)OCC(F)(F)F	13.19%	-
O=C(CC1CCCC1)NCC1CCCCC(=O)N1 (centres undefined)	-14.16%	-
CCCc1nc(CN2C(=O)c3ccccc3C2=O)no1	-	15.48%
CN(C)CCO[C@H]1CCOC[C@H]1NC(=O)c1cc[nH]c1	-	9.781%
Cc1cnc2c(S(=O)(=O)N(C)C)cccc2c1	6.842%	-
CCNC(=O)NC(=O)CN(C)Cc1ccc(Br)o1	-	21.28%
OCCCn1nnc(-c2ccccc2)n1	57.87%	66.21%
COc1ccc(NC(=O)CN)cc1Cl	22.18%	21.09%
OCC1(O)CCCN(Cc2nccs2)CC1 (centres undefined)	-	2.985%
Cc1ccsc1C(=O)Nc1ccc2c(c1)NC(=O)CO2	-	44.1%
CCN1CCC(NC(=O)C2CC2)CC1	-	8.232%
Cc1ccc(OCC(=O)NCC2CCCO2)nc1 (centres undefined)	-	-0.3679%
O=C(NCc1cccs1)c1cnccn1	51.97%	71.56%
Cc1cc(C2CCCN2CC(=O)N2CCOCC2)on1 (centres undefined)	-	-1.466%
CC(C)NCC1CCC(=O)N1 (centres undefined)	-	7.681%
O=C(CC1C=CCC1)NCCNc1cnccn1 (centres undefined)	-	15.55%

Some entries from above, unchanged:

{"compound": "OCC1(O)CCCN(Cc2nccs2)CC1", "stereo": "centres undefined", "B": 2.985}
{"compound": "Cc1nn(C)c(C)c1CCC(=O)N[C@@H]1CCNC[C@H]1O", "A": 11.49}
{"compound": "CS(=O)(=O)NCCNS(=O)(=O)c1ccc2c(c1)CCC2", "A": 10.18}
{"compound": "NCc1nc(-c2ccc(F)cc2)c[nH]1", "B": 54.16}
{"compound": "Cc1cc(C2CCCN2CCS(C)(=O)=O)on1", "stereo": "centres undefined", "B": 10.78}
{"compound": "COC(=O)CCc1nnc(N)s1", "A": -6.943}